Experimental data from publication PMC7397076 (Molecules, 2020).

Tested on: Vero cell line
Test: Cytotoxicity test, MTT assay
Type: cell-based, African green monkey
Details: Vero IC50 / M. tuberculosis MIC

SMILES | SI (IC50/MIC)
NNC(=O)c1ccc(Oc2ccccc2)cc1 [Compound 3, 4-Phenoxybenzohydrazide] | 93.83
c1ccc(Oc2ccc(-c3nnco3)cc2)cc1 [Compound 4, 2-(4-Phenoxyphenyl)-1,3,4-oxadiazole] | 162.95
c1ccc(Oc2ccc(-c3nnc(-c4cccnc4)o3)cc2)cc1 [Compound 6h, 2-(4-Phenoxyphenyl)-5-(pyridin-3-yl)-1,3,4-oxadiazole] | 65.29
c1ccc(Oc2ccc(-c3nnc(-c4cccs4)o3)cc2)cc1 [Compound 6k, 2-(4-Phenoxyphenyl)-5-(thiophen-2-yl)-1,3,4-oxadiazole] | 40.59
c1ccc(Oc2ccc(-c3nnc(-c4ccc(Oc5ccccc5)cc4)o3)cc2)cc1 [Compound 6l, 2,5-bis(4-Phenoxyphenyl)-1,3,4-oxadiazole] | 79.15
c1ccc(Oc2ccc(-c3nnc(-c4ccncc4)o3)cc2)cc1 [Compound 6i, 2-(4-Phenoxyphenyl)-5-(pyridin-4-yl)-1,3,4-oxadiazole] | 68.21
O=C(N/N=C/c1cccc2ccccc12)c1ccc(Oc2ccccc2)cc1 [Compound 8g, (E)-N′-(Naphthalen-1-ylmethylene)-4-phenoxybenzohydrazide] | 73.67
